Results of unrelated studies side by side (data: NIAID ChemDB).

Common to all: tests in culture; agent: Human cytomegalovirus; read by: plaque count; measure: EC50

Two numbers with a dash give a range or band.

compound	cell line	strain or isolate	value
Nc1ccn(C[C@H]2COP(=O)(O)CO2)c(=O)n1	HEL	DAVIS	1 µg/mL
O=c1[nH]c(=O)n([C@H]2C[C@H](O)[C@@H](COP3(=O)OCc4c(ccc5ccccc45)O3)O2)cc1/C=C/Br	HELF	AD169	>128 µg/mL
O=C(NCc1ccc(Cl)cc1)c1cn2c3c(cc(CN4CCOCC4)cc3c1=O)OC(c1cccnc1)C2	HFF	759/R D100 (GCV-resistant)	2.4 µM
CC(C)[C@H](N)C(=O)NCC(=O)OCC(COC(=O)CNC(=O)[C@@H](N)C(C)C)OCn1cnc2c(=O)[nH]c(N)nc21	HFF		4.6 µM
Nc1nc2c(ncn2CC(CO)OCP(=O)(O)O)c(=O)[nH]1	HEL	AD169	1 µg/mL
Nc1ccn(C[C@H]2COP(=O)(O)CO2)c(=O)n1	MRC-5	AD169 (ganciclovir foscarnet-susceptible)	0.51 µM
CN(C)c1cccc2c(S(=O)(=O)Nc3ccc(NC(=O)C(C)(C)CO)cc3)cccc12		V1 (ganciclovir- foscarnet-resistant)	0.15 µM
OC[C@H]1O[C@@H](c2c(Cl)c(Cl)cc3nc(Cl)cn23)[C@H](O)[C@@H]1O			>100 µM
COC(=O)CC[C@@H]1C[C@H]2CCC[C@](NC(=O)c3ccccc3C(=O)N[C@@]34CCC[C@@H](C[C@H](CCC(=O)OC)C3)C4)(C2)C1	HEL	AD169	>20 µg/mL
Nc1nc2ncn(CCOCP(=O)(O)O)c2c(=O)[nH]1	HEL	DAVIS	1.5 µg/mL
CC(=O)O[C@]1(c2c(Cl)ccc3nc(Cl)cn23)O[C@H](CO[Si](C)(C)C(C)(C)C)C2OC(C)(C)OC21			>100 µM
Nc1nc2c(ncn2COC(CO)CO)c(=O)[nH]1	HEL	CMV (AD 169)	7.5 µM
Nc1nc2c(ncn2[C@@H]2C[C@H](CO)[C@H]2O)c(=O)[nH]1			2–4 µM
O=c1[nH]c(=O)n([C@H]2C[C@H](O)[C@@H](COP3(=O)OCc4cccc(-c5ccccc5)c4O3)O2)cc1/C=C/Br	HELF	AD169	>128 µg/mL
Cc1ccc(/C=N/NC(=O)c2ccccc2S(=O)(=O)NC(C)C)cc1	HEL	AD169	>100 µM
Cn1cc(C(=O)NCc2ccc(Cl)cc2)c(=O)c2cc(CN3CCOCC3)ccc21	HFF	PFA/R B300 (PFA-resistant)	4.7 µM
CC(C)NS(=O)(=O)c1ccccc1-c1n[nH]c(=S)o1	HEL	AD169	>100 µM
OC[C@H]1O[C@@H](c2cc(Br)nc3cc(Cl)c(Cl)cc23)C(O)C1O	HFF		30 µM
C/C(=N/NC(N)=S)c1ccc(NC(=O)CN2C(=O)c3ccccc3S2(=O)=O)cc1	HEL	AD169	>100 µM
CC(C)[C@H](N)C(=O)OCC(COC(=O)[C@@H](N)C(C)C)OCn1cnc2c(=O)[nH]c(N)nc21	HFF		2.9 µM
O=C1c2ccccc2C(=O)N1C12CC3CC(CC(C(=O)O)(C3)C1)C2	HEL	DAVIS	>100 µg/mL
Nc1nc2c(ncn2COC(CO)CO)c(=O)[nH]1		VR5406 (ganciclovir-resistant)	20 µM
Nc1ccn(C[C@@H](CO)OCP(=O)(O)O)c(=O)n1	HEL	AD169	0.25 µg/mL
Nc1ccn(C[C@@H](CO)OCP(=O)(O)O)c(=O)n1.O=C(O)P(=O)(O)O	MRC-5	AD169 (ganciclovir foscarnet-susceptible)	1.08 µM
CCOC(=O)CC1OP(=O)(OC[C@H]2O[C@@H](n3cc(/C=C/Br)c(=O)[nH]c3=O)C[C@@H]2O)Oc2cccc(Cl)c21	HELF	AD169	>128 µg/mL
O[C@@H]1[C@H](O)[C@H](O)CO[C@H]1n1c(Br)nc2cc(Cl)c(Cl)cc21	HFF	VR4760R (drug-resistant)	2.5 µM
Nc1ccn(C[C@@H](CO)OCP(=O)(O)O)c(=O)n1	HEL	DAVIS	0.33 µg/mL
Nc1nc(=O)n([C@@H]2O[C@H](CO)[C@@H](O)[C@@H]2F)cc1I	HFF	AD169	0.6 µM
Cc1cc2nc(Cl)n([C@H]3C[C@H](O)[C@@H](CO)O3)c2cc1C	HFF	TOWNE	>100 µM
O=C(O)P(=O)(O)O		1117 3-1-2 (CDV-resistant)	52 µM
Nc1ncnc2c1nnn2[C@@H]1C=C(CO)[C@@H](O)[C@H]1O	HEL	AD169	4.97 µg/mL
O=C1NC23CC4CC(C2)C2C(C4)C3C2(O)c2ccccc21	HEL	AD169	>100 µg/mL
Nc1nc2c(ncn2COC(CO)CO)c(=O)[nH]1	HFF	1117R (drug-resistant)	42 µM
O=C1c2ccccc2C(=O)N1CCC12CC3CC(CC(C3)C1)C2	HEL	DAVIS	>100 µg/mL
O=c1[nH]c(=O)n([C@H]2C[C@H](O)[C@@H](CO[P@]3(=O)OCc4cccc(-c5ccccc5)c4O3)O2)cc1/C=C/Br	HELF	AD169	>128 µg/mL
O=C1NC[C@@H]2C34CC5CC(CC(C5)[C@H]3[C@]2(O)c2ccccc21)C4	HEL	DAVIS	>20 µg/mL
OC[C@H]1O[C@@H](n2c(Br)nc3cc(Cl)c(Cl)cc32)[C@H](O)[C@@H]1O	HFF	C4 (BDCRB- maribavir-resistant)	37.7 µM
CC(C)Nc1nc2cc(Cl)c(Cl)cc2n1[C@H]1C[C@H](O)[C@@H](CO)O1	HFF	TOWNE	24 µM
Nc1nc2c(ncn2COCCCP(=O)([O-])O)c(=O)[nH]1	HFF	AD169	5.4 µM
CC1(C)OC2C(O1)[C@H](c1cccc3nccn13)O[C@@H]2CO[Si](C)(C)C(C)(C)C			>100 µM
O=C1c2ccccc2[C@@]2(O)[C@H]3C4CC5CC(C4)CC3(C5)CN12	HEL	AD169	>20 µg/mL
OC[C@H]1O[C@H](c2c(Cl)ccc3nc(Cl)cn23)[C@H](O)[C@@H]1O			>100 µM
COc1cccc(N2CCN(C3=Nc4c(F)cccc4[C@H](CC(=O)O)N3c3cc(C(F)(F)F)ccc3OC)CC2)c1		RV-HG rGCV	0.0039 µM
Nc1nc(NC2CC2)c2ncn(COCCCP(=O)(O)O)c2n1	HFF	AD169	>90 µM
Nc1nc2c(ncn2COC(CO)CO)c(=O)[nH]1	NHDF		20 µM
C[C@@H]1O[C@@H](n2c(Cl)nc3cc(Cl)c(Cl)cc32)[C@H](O)[C@@H]1O	HFF	R56 (BDCRB- maribavir-resistant)	0.81 µM
O=C1c2ccccc2C(=O)N1[C@@H]1CC2CC3CC(C2)C1C3	HEL	DAVIS	>100 µg/mL
COc1ccc(/C=N/NC(=O)c2ccccc2S(=O)(=O)NC(C)C)cc1	HEL	DAVIS	>100 µM
CCCCCCCCCCCCCCCCCCOCCOP(=O)(O)CCCOCn1cnc2c(=O)[nH]c(N)nc21	HFF	AD169	0.48 µM
CC1(C)OC2C(O1)[C@H](c1c(Cl)ccc3nc(Cl)cn13)O[C@@H]2CO[Si](C)(C)C(C)(C)C			>100 µM
O=c1[nH]c(=O)n([C@H]2C[C@H](O)[C@@H](COP3(=O)OCc4ccc5ccccc5c4O3)O2)cc1/C=C/Br	HELF	AD169	>128 µg/mL
CCCCCCCCCCCCCCCCOCCCOP(=O)(O)CCCOCn1cnc2c(=O)[nH]c(N)nc21	HFF	AD169	0.14 µM
[N-]=[N+]=Nc1nc2cc(Cl)c(Cl)cc2n1[C@H]1C[C@H](O)[C@@H](CO)O1	HFF	TOWNE	>100 µM
CO[C@H]1C[C@H](n2cc(/C=C/Br)c(=O)[nH]c2=O)O[C@@H]1COP1(=O)OCc2cccc(C)c2O1	HELF	AD169	>64 µg/mL

3 of the rows above, restated:

compound	cell line	strain or isolate	value
C[C@@H]1O[C@@H](n2c(Cl)nc3cc(Cl)c(Cl)cc32)[C@H](O)[C@@H]1O	HFF	R56 (BDCRB- maribavir-resistant)	0.81 µM
O=C1c2ccccc2C(=O)N1CCC12CC3CC(CC(C3)C1)C2	HEL	DAVIS	>100 µg/mL
Nc1ccn(C[C@H]2COP(=O)(O)CO2)c(=O)n1	MRC-5	AD169 (ganciclovir foscarnet-susceptible)	0.51 µM

Conditions beyond the fields shown may differ between rows. ECn: concentration that inhibits the pathogen or its effect by n%. An empty or dashed field is not shown.